These results are taken from PubChem BioAssay AID603 (National Center for Advancing Translational Sciences (NCATS), 2007).

The test deals with DNA polymerase III holoenzyme (E. coli). The test is described as follows: qHTS Assay for Inhibitors of DNA Polymerase III Holoenzyme System. The conditions noted are these: reconstituted DNA polymerase III holoenzyme replication, biochemical. As for the experimental part: NIH Molecular Libraries Screening Centers Network [MLSCN]
NIH Chemical Genomics Center [NCGC]
Assay Provider: Charles McHenry, University of Colorado
E. coli DNA polymerase III holoenzyme complex was assayed for DNA production by fluorescent detection of the double-stranded DNA product with PicoGreen dye. The holoenzyme complex was reconstituted from the following purified protein components: DNA Polymerase III, beta subunit processivity factor, SSB single-stranded DNA binding protein, and Primase. Single-stranded, circular M13Gori was used as a substrate with dNTPs and NTPs also supplied to the substrate reagent. Compounds from the NCGC collection were incubated with the holoenzyme mixture for 15 min at room temperature to allow binding to occur, and then the reaction was started by the addition of substrate. After 30 min incubation at room temperature, PicoGreen solution containing EDTA was added to stop the reaction and to visualize the double-stranded DNA produced. Reaction progress was measured in a ViewLux CCD imager in fluorescence intensity mode by using 480 nm excitation and 540 nm emission filter set.
NCGC Assay Protocol Summary:
Buffer. 50 mM Hepes-KOH, pH 7.5, 5 % Glycerol, 0.02% NP40, 30 mM potassium;
glutamate, 1.5 mM Magnesium Acetate, 16 uM TCEP.
Buffer in columns 3 and 4 as negative control (no enzyme).
Substrate solution: 5 uM each dATP, dGTP, dCTP and TTP, 50 uM each GTP, CTP, UTP and 200 uM ATP, 1.4 nM M13gori (final concentrations).
Enzyme: 154 nM SSB, 2 nM Primase, 1 nM Beta, 0.35 nM Pol III (final concentrations).
PicoGreen/EDTA: 10 mM Tris-HCl, 10 mM EDTA, 5 uM PicoGreen (final concentrations).
Control titration: ChemBridge 5805060 (from 10 mM, then 1:2, in duplicate) was pin-transferred to upper half of column 2.
Three uL of holoenzyme mixture were dispensed to 1536-well Greiner black solid bottom plates. Compounds and controls (23 nL) were transferred via Kalypsys PinTool. The plates were incubated for 15 min at room temperature, and then 1 uL of substrate solution was added to start the reaction. After room temperature incubation for 35 minutes, 1 uL of PicoGreen solution was added to each well and the plates were read 480 nm excitation and 540 nm emission using ViewLux (Perkin-Elmer) High-throughput CCD imager and fluorescence protocol settings.
Keywords: NIH Roadmap, MLSCN, MLI, MLSMR, qHTS, NCGC, DNA Polymerase III, DNAPol3, DNAPoly3, DNA replication targets

The mark [1] stands for this setting: at 57.1 µM (top of the series) unless noted.

The structures appear in SMILES notation. Values joined by “and” are separate entries in the source; they are usually repeats but may differ in a detail not shown here. Equal values may be shown once. The entries are a selection whose mix differs from that of the whole data set. Active and inactive are the calls of the source. The call rests on the fitted dose curve; in most records, active means well fitted curve in the direction sought with a large enough effect; inconclusive means small, poorly fitted or top-dose-only effect; inactive means flat fitted curve, though single readings scatter.
On the % scale 0 is the no-effect control and ±100 the full control effect.

For the molecule `CN(C(=O)Cc1ccccc1)[C@@H]1CC[C@@]2(CCCO2)C[C@H]1N1CCCC1`, the activity change, negative = inhibition under setting [1] is inactive: -1.9%. Still for that read-out and setting: to `CCc1nc2c(n1)c1c(non1O)c1c2no[n+]1[O-]` belongs inactive: -8%. `O=C(CO)Nc1ccc([As](=O)(O)O)cc1`: the activity change, negative = inhibition under setting [1] was inactive: -9.9% [at 11.4 µM]. On to `O=[N+]([O-])c1ccc(C[As](=O)(O)O)cc1`, for which, under setting [1], the activity change, negative = inhibition was inactive: -8.3% [at 11.4 µM]. In the case of `NCC[C@@H](N)CSP(=O)(O)O`, under setting [1], the activity change, negative = inhibition was inactive: -1.7% [at 11.4 µM].

Consider `Cc1c2non([O-])c-2c(C)[n+](=O)[n+]1[O-]`, for which, under setting [1], the activity change, negative = inhibition is inactive: -13.6%. Turning to `CN(C(=O)Cc1ccc(Cl)c(Cl)c1)[C@H]1CCCC[C@@H]1N1CCCC1`, the activity change, negative = inhibition under setting [1] is inactive: -3% and inactive: -5.8% and inactive: -2.7%.

`C(Cc1nn[nH]n1)c1nn[nH]n1`: under setting [1], the activity change, negative = inhibition is inactive: -1.4% [at 11.4 µM].

Regarding `[N-]=[N+]=NCC(O)CN=[N+]=[N-]` (configuration not stated), under setting [1], the activity change, negative = inhibition was inactive: -8.3% [at 11.4 µM]. Same read-out and setting: to `COC(=O)c1cc2c(s1)N=C(c1ccccc1)N(C)P2(=O)N1CCOCC1` (configuration not stated) belongs inactive: -1.7%; to `O=P1(Nc2nc3ccc(Cl)cc3s2)COc2ccccc2O1` (configuration not stated), inactive: 3.5%; to `c1nnnn1CCn1cnnn1`, inactive: -0.5%. For `O=P(Nc1nccs1)(c1ccccc1)c1ccccc1`, the activity change, negative = inhibition under setting [1] is inactive: 2.8%. As for `C[C@@H](O)COc1ccc([As](=O)(O)O)cc1N`, under setting [1], the activity change, negative = inhibition is inactive: -6% [at 11.4 µM]. On to `CN1CCC[C@H](OC(=O)C(c2ccccc2)c2ccccc2)C1`, for which the activity change, negative = inhibition under setting [1] is inactive: -9.7% [at 11.4 µM].

Consider `Cc1cc([N+](=O)[O-])cc([N+](=O)[O-])c1O`, for which the activity change, negative = inhibition under setting [1] was inactive: -0.5%. `[N-]=[N+]=Nc1ccc([As](=O)(O)O)cc1`: the activity change, negative = inhibition under setting [1] is inactive: -0.8% [at 11.4 µM]. For the molecule `O=C(OC1CN2CCC1CC2)c1cccc(Cl)c1` (configuration not stated), under setting [1], the activity change, negative = inhibition was inactive: -4.3%. On to `Cc1nn(-c2ccccc2)c2c1P(=O)(N1CCOCC1)N(C)C(c1ccccc1)=N2` (configuration not stated), for which the activity change, negative = inhibition under setting [1] is inactive: -8.1%. Regarding `O=P1(Nc2ccc(Br)cn2)COc2ccccc2OC1`, the activity change, negative = inhibition under setting [1] is inactive: 9.4%.

For the molecule `O=P1(Nc2ncccn2)COc2ccccc2OC1`, under setting [1], the activity change, negative = inhibition is inactive: -4.6%. Take `Clc1n[nH]nc1-c1nn[nH][15n]1`: the activity change, negative = inhibition under setting [1] was inactive: -7.6%. In the case of `O=P1(Nc2ccccn2)COc2ccccc2OC1`, the activity change, negative = inhibition under setting [1] was inactive: -4.6%. In the case of `CN(CCCl)Cc1cc(Cl)c(NC2=NCCN2)c(Cl)c1`, the activity change, negative = inhibition under setting [1] was inactive: -5.7%. On to `CN(C(=O)Cc1ccc(Cl)c(Cl)c1)[C@@H]1CCCC[C@H]1N1CCCC1`, for which the activity change, negative = inhibition under setting [1] is inactive: -3.4% [middle of 4 runs]. For `CN(C(=O)Cc1ccc(Cl)c(Cl)c1)[C@@H]1CC[C@@]2(CCCO2)C[C@H]1N1CCCC1`, the activity change, negative = inhibition under setting [1] is inactive: -3.6%. On to `NS(=O)(=O)Cc1ccc([As](=O)(O)O)cc1`, for which the activity change, negative = inhibition under setting [1] is inactive: 7.6% [at 11.4 µM]. Still for that read-out and setting: then `O=C(CC(=O)c1ccccc1)O[C@H]1CN2CCC1CC2`, with inactive: 1.7% [at 11.4 µM]; and `O=[As](O)(O)c1ccc([As](=O)(O)O)cc1`, with inactive: -4.3% [at 11.4 µM]; and `CCOP1(=S)c2c(C)nn(CCC#N)c2N=C(c2ccccc2F)N1C` (configuration not stated), with inactive: -2.5%. On to `O=P(Nc1nccs1)(c1ccccc1)c1nc2ccccc2s1` (configuration not stated), for which the activity change, negative = inhibition under setting [1] is inactive: -3.6%. Regarding `CCOP1(=S)c2c(C)nn(CCC#N)c2N=C(c2ccc(F)cc2)N1C` (configuration not stated), under setting [1], the activity change, negative = inhibition was inactive: 0.9%.

With `NC(=O)Nc1ccc([As](=O)(O)O)cc1`, the activity change, negative = inhibition is, setting by setting: (at 25.6 µM (top of the series)) inactive: -4.9%; (at 57.1 µM (top of the series)) inactive: -5.6%. Turning to `O=[As]c1ccc(S(=O)(=O)NCCO)cc1` (configuration not stated), under setting [1], the activity change, negative = inhibition is inactive: -8.7% [at 11.4 µM]. For the molecule `[N-]=[N+]=NCC(N)=O`, the activity change, negative = inhibition under setting [1] was inactive: -9.6% [at 11.4 µM]. On to `NC(=O)Nc1cc([As](=O)(O)O)cc(I)c1O`, for which, under setting [1], the activity change, negative = inhibition was inactive: -9.9% [at 11.4 µM]. In the case of `O=C(OC1CN2CCC1CC2)C12CC3CC(CC(C3)C1)C2` (configuration not stated), under setting [1], the activity change, negative = inhibition is inactive: -1%. Consider `O=C(COc1ccccc1)OC1CN2CCC1CC2` (configuration not stated), for which the activity change, negative = inhibition under setting [1] is inactive: -5.8%. As for `O=C(O)[C@@H](O)c1ccc([As](=O)(O)O)cc1`, the activity change, negative = inhibition under setting [1] was inactive: 6.2% [at 11.4 µM].

Turning to `COP1(=S)c2c(C)nn(CCC#N)c2N=C(c2ccc(F)cc2)N1C` (configuration not stated), under setting [1], the activity change, negative = inhibition is inactive: -7.9%.

`CN(N=O)C(=N)N[N+](=O)[O-]`: under setting [1], the activity change, negative = inhibition is inactive: -2.8%.
